Results published in PMC6181439.

Sequences of proteins named here, by UniProt entry; tags and fusion partners are left off. Residues count along the entry.
UniProt P04925, 23-120: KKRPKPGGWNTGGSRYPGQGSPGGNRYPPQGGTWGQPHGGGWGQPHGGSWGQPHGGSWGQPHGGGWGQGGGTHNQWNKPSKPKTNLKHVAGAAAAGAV
UniProt P04925, 23-230: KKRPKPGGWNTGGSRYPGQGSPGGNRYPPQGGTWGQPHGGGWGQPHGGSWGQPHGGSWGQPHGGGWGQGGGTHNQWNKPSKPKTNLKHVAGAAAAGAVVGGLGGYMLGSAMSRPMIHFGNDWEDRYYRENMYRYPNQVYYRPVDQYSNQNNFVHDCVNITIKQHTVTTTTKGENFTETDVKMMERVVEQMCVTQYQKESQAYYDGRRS

Columns and labels:
[1] = target: Recombinant mouse PrP flexible tail only (23-120) (mouse) (UniProt P04925); assay: SPR; details: bispecific antibody
[2] = target: Recombinant mouse PrP full length (23-230) (mouse) (UniProt P04925); assay: SPR; details: bispecific antibody

scPOM-bi, POM1-POM2 bispecific single chain antibody
Kd [1]: 10.7 nM | koff [1]: 0.00013 s⁻¹ | Kd [2]: 0.8 nM | koff [2]: 6.3e-05 s⁻¹
